Measured data: PubChem BioAssay AID624099 (ICCB-Longwood, 2012)

Aim: 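Knock-downs relieving repression by E2 of an HPV18 LCR luciferase reporter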 (primary screen)
Cells: human C33A cervical carcinoma cells (HPV-negative) stably expressing BPV1 E2 and an HPV18 LCR luciferase reporter
Reagents: siRNA pool against human genes, 40 nM
Timing: 72 h
Measured: 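Per-well luciferase luminescence, z-scored on each plate against the plate mean and SD with control wells left out, then averaged across three replicate plates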
Reading the numbers: mean z-score and z-score: higher = stronger reporter signal, weaker E2 silencing
Call rule: 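Mean z ≥ 2 together with z ≥ 2 in two or more of the three replicates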
The deposit covers about 21,000 reagents; shown is a part drawn at random. In the full data, 497 (2.4%) got an active call. 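Higher z means weaker E2 silencing; only reporter increases were scored, and knock-downs that hurt cell survival may mask genuine repressor factors.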

KRTAP1-5 | mean z-score: -0.87; z-score, replicate A: -0.85; z-score, replicate B: -1.06; z-score, replicate C: -0.71; Outcome: inactive
TUBGCP2 | mean z-score: -1.39; z-score, replicate A: -0.88; z-score, replicate B: -1.54; z-score, replicate C: -1.75; Outcome: inactive
ARL6IP1 | mean z-score: -0.8; z-score, replicate A: -0.82; z-score, replicate B: -0.93; z-score, replicate C: -0.66; Outcome: inactive
UNK | mean z-score: -0.32; z-score, replicate A: 0.12; z-score, replicate B: -0.34; z-score, replicate C: -0.73; Outcome: inactive
SMPDL3A | mean z-score: 0.83; z-score, replicate A: 0.91; z-score, replicate B: 0.66; z-score, replicate C: 0.92; Outcome: inactive
PUS7 | mean z-score: 1.94; z-score, replicate A: 1.74; z-score, replicate B: 1.89; z-score, replicate C: 2.18; Outcome: inactive
CPO | mean z-score: -0.49; z-score, replicate A: -0.56; z-score, replicate B: -0.68; z-score, replicate C: -0.21; Outcome: inactive
KIF2A | mean z-score: 0.73; z-score, replicate A: 0.62; z-score, replicate B: 0.99; z-score, replicate C: 0.59; Outcome: inactive
GLRX | mean z-score: 0.69; z-score, replicate A: 0.59; z-score, replicate B: 0.95; z-score, replicate C: 0.55; Outcome: inactive
WDR97 | mean z-score: 0.15; z-score, replicate A: 0.02; z-score, replicate B: 0.05; z-score, replicate C: 0.37; Outcome: inactive
BNIPL | mean z-score: -0.09; z-score, replicate A: 0.05; z-score, replicate B: -0.14; z-score, replicate C: -0.19; Outcome: inactive
C18orf54 | mean z-score: -0.49; z-score, replicate A: -0.65; z-score, replicate B: -0.07; z-score, replicate C: -0.76; Outcome: inactive
NRM | mean z-score: 0.31; z-score, replicate A: 0.5; z-score, replicate B: 0.34; z-score, replicate C: 0.07; Outcome: inactive
SDF4 | mean z-score: -0.27; z-score, replicate A: -0.78; z-score, replicate B: 0.25; z-score, replicate C: -0.28; Outcome: inactive
FAM194C | mean z-score: 0.29; z-score, replicate A: 0.38; z-score, replicate B: 0.34; z-score, replicate C: 0.16; Outcome: inactive
FAM167A | mean z-score: -0.23; z-score, replicate A: -0.22; z-score, replicate B: -0.16; z-score, replicate C: -0.29; Outcome: inactive
HSD17B2 | mean z-score: -0.97; z-score, replicate A: -1.29; z-score, replicate B: -0.79; z-score, replicate C: -0.83; Outcome: inactive
ODC1 | mean z-score: 0.18; z-score, replicate A: 0.05; z-score, replicate B: 0.1; z-score, replicate C: 0.38; Outcome: inactive
NRG3 | mean z-score: 0.8; z-score, replicate A: 0.54; z-score, replicate B: 1.09; z-score, replicate C: 0.77; Outcome: inactive
LMO4 | mean z-score: 0.14; z-score, replicate A: 0.28; z-score, replicate B: 0.11; z-score, replicate C: 0.02; Outcome: inactive
ZNF189 | mean z-score: -1.2; z-score, replicate A: -1.22; z-score, replicate B: -1.17; z-score, replicate C: -1.22; Outcome: inactive

A few values from above.
FAM167A, z-score, replicate B: -0.16
Result for LMO4 under “z-score, replicate A”: 0.28
Under “z-score, replicate B”, UNK reads -0.34
